This note sets out measurements from ChEMBL document CHEMBL1154023, “Carbonic anhydrase inhibitors. Inhibition of the beta-class enzyme from the pathogenic yeast Candida glabrata with anions” (Bioorg Med Chem Lett, 2009).

Sequences of proteins named here, by UniProt entry; tags and fusion partners are left off. Residues count along the entry.
UniProt Q6FTL6, 1-219: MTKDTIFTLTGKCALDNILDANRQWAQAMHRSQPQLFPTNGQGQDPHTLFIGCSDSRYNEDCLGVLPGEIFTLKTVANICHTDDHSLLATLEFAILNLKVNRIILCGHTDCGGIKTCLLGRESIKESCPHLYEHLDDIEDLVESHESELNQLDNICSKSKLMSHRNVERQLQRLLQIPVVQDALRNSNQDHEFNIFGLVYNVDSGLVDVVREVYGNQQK

Molecules are shown by their SMILES.

In this assay the target is Carbonic anhydrase (Candida glabrata CBS 138, UniProt Q6FTL6). Kind of assay: Inhibition of Candida glabrata carbonic anhydrase by stopped flow CO2 hydration assay.

The molecule `O=[As](O)(O)c1ccccc1` gave a Ki of 98 µM.

As usually defined, the Ki is the dissociation constant of the complex between target and ligand, obtained from inhibition or displacement. A high value points to lower affinity.
